Measured values from several laboratories, pooled; numbers as filed in NIAID ChemDB.

Common to all: target-level tests; agent: Hepatitis C virus; protein: Nonstructural protein 5B; endpoint: IC50

Neighbouring rows are from separate reports. Two numbers with a dash give a range or band. An empty or dashed field is not shown. ICn is the concentration giving n% inhibition.

| structure | strain or isolate | method | value |
|---|---|---|---|
| COc1ccc(SC2=C(O)CC(CCc3ccc(OC(C)C)c(Cl)c3)(C3CCCC3)OC2=O)cc1 | - | - | <1 µM |
| COc1ccc(-c2ccc(C=C3SC(=S)N(c4ccc(C(=O)O)cc4)C3=O)o2)cc1 | - | - | ≤1 µM |
| COc1nc(NCCc2ccccn2)nc(Nc2ccc3cn[nH]c3c2)n1 | - | - | 1–10 µg/mL |
| CNC(=O)c1c(-c2ccc(F)cc2)oc2cc(N(CS(C)(=O)=O)c3cscn3)c(OC)cc12 | - | - | ≤0.5 µM |
| COc1ccc(OCC2(C3CCCC3)CC(=O)CC(=O)O2)cc1 | - | - | >50 µM |
| CNC(=O)c1c(-c2ccc(F)cc2)oc2cc(N(CCOC)S(C)(=O)=O)c(OC(C)C)cc12 | - | - | ≤0.5 µM |
| COc1nc(NCCN2CCOCC2)nc(Nc2ccc3cn[nH]c3c2)n1 | - | - | >10 µg/mL |
| O=C1OC(CCc2ccc(O)cc2)(C2CCCC2)CC(O)=C1Sc1cccc2ccccc12 | - | - | 1–10 µM |
| COc1nc(NCCCn2ccnc2)nc(Nc2ccc3cn[nH]c3c2)n1 | - | - | 1–10 µg/mL |
| Cc1cc(-c2ccc(C=C3SC(=S)NC3=O)o2)oc1C | - | - | ≤1 µM |
| O=C1C=C(O)CC(CCc2ccc(Oc3ccccc3)cc2)(C2CCCC2)O1 | - | - | 10–50 µM |
| COc1nc(Nc2ccc3[nH]ncc3c2)nc(N2CCOCC2)n1 | - | - | 0.1–1 µg/mL |
| Cc1cccc(CCC2(C3CCCC3)CC(=O)CC(=O)O2)c1 | - | - | 10–50 µM |
| COC(=O)[C@@H]1CCCN1c1nc(Nc2ccc3cn[nH]c3c2)nc(OC)n1 | - | - | >10 µg/mL |
| Cc1cc(SC2=C(O)CC(CCC3CCCC3)(C3CCCC3)OC2=O)c(C(C)(C)C)cc1CO | - | - | 10–50 µM |
| O=C(O)CCN1C(=O)C(=Cc2ccc(-c3ccc4c(c3)Cc3ccccc3-4)o2)SC1=S | - | - | ≤1 µM |
| CCOC(=O)c1cnc(SC2=C(O)CC(CCc3ccc(OC)cc3)(C3CCCC3)OC2=O)[nH]1 | - | - | 1–10 µM |
| O=C(O)c1ccc(-n2c(O)c(C=c3cc/c(=C4\C=c5ccccc5=N4)o3)sc2=S)cc1 | - | - | ≤1 µM |
| COc1c(-c2ccc3cc(NS(C)(=O)=O)ccc3c2)cc(-n2ccc(=O)[nH]c2=O)cc1C(C)(C)C | GT 2b#2 | nucleotide incorporation | 16.1 µM |
| COc1nc(NCCc2ccccn2)nc(Nc2ccc3[nH]ncc3c2)n1 | - | - | 1–10 µg/mL |
| CNC(=O)c1c(-c2ccc(F)cc2)oc2cc(-c3noc(C)n3)c(OC)cc12 | - | - | ≤0.5 µM |
| CC(=O)c1ccc(CCC2(C3CCCC3)CC(=O)CC(=O)O2)cc1F | - | - | 1–10 µM |
| COc1nc(Nc2ccc3cn[nH]c3c2)nc(N2CCOCC2)n1 | - | - | 1–10 µg/mL |
| CNC(=O)c1c(-c2ccc(F)cc2)oc2cc(N3CCOCC3)c(OC(C)c3nccs3)cc12 | - | - | ≤0.5 µM |
| COc1nc(Nc2ccc3cn[nH]c3c2)nc(NN2CCOCC2)n1 | - | - | 1–10 µg/mL |
| O=C(O)CCN1C(=O)C(=Cc2ccc(-c3cccs3)s2)SC1=S | - | - | ≤1 µM |

Repeating the final 3 entries:

structure | strain or isolate | method | value
CNC(=O)c1c(-c2ccc(F)cc2)oc2cc(N3CCOCC3)c(OC(C)c3nccs3)cc12 | - | - | ≤0.5 µM
COc1nc(Nc2ccc3cn[nH]c3c2)nc(NN2CCOCC2)n1 | - | - | 1–10 µg/mL
O=C(O)CCN1C(=O)C(=Cc2ccc(-c3cccs3)s2)SC1=S | - | - | ≤1 µM